Pooled drug test results. Numbers come from NIAID ChemDB, via PubChem.

Common to all: whole-cell or culture tests; organism: Respiratory syncytial virus; measure: EC50

An empty or dashed field is not shown. Rows are shuffled and stem from different studies. ECn: concentration that inhibits the pathogen or its effect by n%.

{"structure": "COC(=O)[C@]1(C)CCC[C@]2(C)c3ccc4[nH]c(C)nc4c3CCC12", "cells": "HeLa", "read by": "plaque count", "result": ">4 µg/mL"}
{"structure": "COc1cc(OC)c(NC(=S)Nc2ccc(NC(=O)c3ccco3)cc2C(F)(F)F)cc1Cl", "cells": "HFF", "result": ">10 µg/mL"}
{"structure": "CCOC(=O)c1cc(C#N)c2[nH]c3ccccc3n2c1=O", "cells": "HEP-2", "read by": "plaque count", "result": "15.3 µg/mL"}
{"structure": "O=c1ccn([C@@H]2O[C@H](/C=C/C=C(Br)Br)[C@@H](O)[C@H]2O)c(=O)[nH]1", "cells": "HeLa", "result": "≥200 µM"}
{"structure": "CC(NC(=S)Nc1ccc(NC(=O)c2nccc3ccccc23)cc1)c1cc2ccccc2o1", "cells": "HFF", "read by": "ELISA", "strain or isolate": "A2", "result": ">10 µg/mL"}
{"structure": "COC(=O)[C@]1(C)CCC[C@]2(C)c3ccc4[nH]cnc4c3CCC12", "cells": "HeLa", "read by": "plaque count", "result": ">4 µg/mL"}
{"structure": "O=C(Nc1ccc(NC(=S)Nc2cc(C(F)(F)F)cc(C(F)(F)F)c2)cc1)c1ccco1", "cells": "HFF", "result": ">10 µg/mL"}
{"structure": "CCCN(CCC)C(=O)c1cccc(Nc2nc(Nc3cccc(C(=O)N(CCC)CCC)c3)nc(Nc3ccc(Nc4ccc(-c5ccc(Nc6ccc(Nc7nc(Nc8cccc(C(=O)N(CCC)CCC)c8)nc(Nc8cccc(C(=O)N(CCC)CCC)c8)n7)cc6S(=O)(=O)[O-])cc5S(=O)(=O)O)c(S(=O)(=O)O)c4)c(S(=O)(=O)[O-])c3)n2)c1", "cells": "HFF", "read by": "ELISA", "strain or isolate": "A2", "result": ">25 µM"}
{"structure": "COc1cc(OC)c(NC(=S)Nc2ccc(NC(=O)c3ccco3)c(OC)c2)cc1Cl", "cells": "HFF", "result": ">10 µg/mL"}
{"structure": "CN[C@H]1C[C@@H](n2cnc3c(N)ncnc32)[C@H](O)[C@@H]1O", "cells": "HFF", "result": ">100 µg/mL"}
{"structure": "O=C(Nc1ccc(NC(=S)Nc2ccc(C(F)(F)F)c(Cl)c2)cc1)c1ccccn1", "cells": "HFF", "result": ">10 µg/mL"}
{"structure": "O=C(NC1CC1)c1cc2c(s1)-c1ccccc1N(C(=O)c1ccc(NC(=O)c3ccccc3-c3ccccc3)cc1)CC2", "cells": "HeLa", "read by": "plaque count", "strain or isolate": "A2 (A)", "result": "0.28 µM"}
{"structure": "O=C(Nc1ccc(NC(=S)Nc2cccc(C(F)(F)F)c2)cc1)c1ccco1", "cells": "HFF", "result": ">10 µg/mL"}
{"structure": "N#Cc1cc(C#N)c2[nH]c3ccccc3n2c1=O", "cells": "HEP-2", "read by": "syncytia", "result": "7.9 µg/mL"}
{"structure": "COC(=O)[C@]1(C)CCC[C@]2(C)c3ccc4[nH]c(C(F)(F)F)nc4c3CCC12", "cells": "HeLa", "read by": "plaque count", "result": ">4 µg/mL"}
{"structure": "NC(=O)CCN(CCC(N)=O)S(=O)(=O)c1cccc(Nc2nc(Nc3cccc(S(=O)(=O)N(CCC(N)=O)CCC(N)=O)c3)nc(Nc3ccc(Nc4ccc(-c5ccc(Nc6ccc(Nc7nc(Nc8cccc(S(=O)(=O)N(CCC(N)=O)CCC(N)=O)c8)nc(Nc8cccc(S(=O)(=O)N(CCC(N)=O)CCC(N)=O)c8)n7)cc6S(=O)(=O)[O-])cc5CO)c(CO)c4)c(S(=O)(=O)[O-])c3)n2)c1", "cells": "HFF", "read by": "ELISA", "strain or isolate": "A2", "result": ">25 µM"}
{"structure": "N#Cc1cc(NC(=O)c2ccccc2)c(=O)n2c1[nH]c1ccccc12", "cells": "HEP-2", "read by": "plaque count", "result": "0.12 µg/mL"}
{"structure": "COC(=O)[C@]1(C)CCC[C@]2(C)c3cc4cc[nH]c4cc3CCC12", "cells": "HeLa", "read by": "plaque count", "result": ">4 µg/mL"}

The first 2 rows once more:

structure | cells | read by | strain or isolate | result
COC(=O)[C@]1(C)CCC[C@]2(C)c3ccc4[nH]c(C)nc4c3CCC12 | HeLa | plaque count | - | >4 µg/mL
COc1cc(OC)c(NC(=S)Nc2ccc(NC(=O)c3ccco3)cc2C(F)(F)F)cc1Cl | HFF | - | - | >10 µg/mL